Data on 1 compound can be found in patent EP0855181A2 (priority 1997, dated 1998).

The assay has as its system superantigen primed neutrophils. In words: Leukotriene and 12-HETE release of superantigen primed neutrophils. The note with it: glycine, then fMLP.
[1] abbreviates: SEB-T-cell receptor mutant priming.

For the compound `NCC(=O)O` [glycine], the “leukotriene and 12-HETE pattern compared with SEA” value (SEA-T-cell receptor mutant priming) was “marginally shifts this image”. The 20-carboxy-LTB4 result (SEB-MHC-mutant priming) is “drop”. Further, under setting [1], the 12-HETE result is “marginal increase” and the 20-carboxy-LTB4 result was “significant drop”. In addition, for the setting “TSST-1-mutant P135 priming”, the “increase in 12-HETE” value is given as “marginal” and the “increase in cysteinyl leukotrienes” value is “marginal”.
